Measured values from several laboratories, pooled; numbers as filed in NIAID ChemDB.

All rows: growth or infection tests; agent: Rhinovirus; measure: EC50

Blank or dashed fields: not listed here. Conditions beyond the fields shown may differ between rows. ECn is the concentration giving n% inhibition of infection, replication or growth.

SMILES	strain or isolate	cell line	method	result
CCOC(=O)/C=C/[C@H](C[C@@H]1CCNC1=O)NC(=O)[C@H](Cc1ccc(F)cc1)NC(=O)[C@@H](NC(=O)c1cc(C)on1)C(C)C	Serotype 10	-	-	<0.14 µM
CCS(=O)(=O)c1ccc(Cc2ccc(Cl)c(Cl)c2)nc1	TYPE 1A	HeLa	cytopathic effect	0.6 µg/mL
Nc1ccn([C@@H]2C=C(CO)[C@@H](O)[C@H]2O)c(=O)n1	TYPE 1A	WI-38	cytopathic effect	10 µg/mL
CS(=O)(=O)c1ccc(Oc2ccc(Cl)c(Cl)c2)nc1	TYPE 1A	-	cytopathic effect	0.94 µM
CCOC(=O)c1ccc(OCCC2CCN(c3ccc(C)nn3)CC2)cc1	Serotype 1A	WI-38	cytopathic effect	<0.1 µg/mL
CCOC(=O)/C=C/[C@H](C[C@@H]1CCNC1=O)NC(=O)[C@H](Cc1ccc(F)cc1)NC(=O)[C@@H](NC(=O)c1cc(C)on1)C(C)(C)C	Serotype 9	H1-HELA	XTT	0.04 µM
Cn1c2ccccc2c2nnc(NCCCCCCO)nc21	2060	WI-38	plaque count	100 µg/mL
CS(=O)(=O)c1ccc(NCCc2ccc(Cl)c(Cl)c2)nc1	TYPE 2	HeLa	cytopathic effect	<1.3 µg/mL
CSc1nsc(-c2ccc(OS(=O)(=O)c3ccc(C)cc3)cc2)c1C#N	Serotype 72 (group A)	HELA-OHIO	cytopathic effect	>25 µM
COCc1cc(CCCOc2c(Cl)cc(-c3noc(C)n3)cc2Cl)on1	Serotype 22	HeLa	cytopathic effect	0.009 µg/mL
Cc1nc(C(C)C)c2[nH]c(=S)[nH]c(=O)n12	TYPE 1A	WI-38	cytopathic effect	>200 µg/mL
CS(=O)(=O)c1ccc(Cc2ccc(Cl)c(Cl)c2)nc1	TYPE 44	HeLa	cytopathic effect	5 µg/mL
CCOC(=O)c1ccc(OCCC2CCN(c3ccc(C)nn3)CC2)cc1	K6579 (ICAM-1 receptor group 100)	KB	neutral red	0.027 µM
Cc1c(-c2ccccc2)n(-c2ccc(F)cc2)c2ccc(C(C)C)cc2c1=O	41/56110	HELA-OHIO	cytopathic effect	0.058 µg/mL
Fc1cccc(Cn2cnc3c(Nc4cccc(F)c4)nc(C(F)(F)F)nc32)c1	Serotype 32	M-HELA	plaque count	5.7 µM
CN(C)c1ncnc2c1ncn2Cc1cccc(O)c1	Serotype 1B	M-HELA	plaque count	>50 µM
CSc1nsc(-c2ccc(OCCCCOc3ccc([N+](=O)[O-])cc3)cc2)c1C#N	Serotype 89 (group B)	HELA-OHIO	cytopathic effect	>0.5 µM
CC(C)Oc1ccccc1NC(=O)Nc1ccc2cnccc2n1	-	-	plaque count	1 µg/mL
CSc1nsc(-c2ccc(OCCCc3ccccc3)cc2)c1C#N	Serotype 14 (group A)	HELA-OHIO	cytopathic effect	>20 µM
CCOC(=O)/C=C/[C@H](C[C@@H]1CCNC1=O)NC(=O)Nc1cccc2ccccc12	Serotype 14	H1-HELA	-	>10 µM
CO/N=C/c1cc(C)c(OCCCc2cc(C)no2)c(C)c1	TYPE 1A	KB	cytopathic effect / visual reading	<0.16 µg/mL
Cc1cc(C(=O)N[C@H](C(=O)C[C@@H](Cc2ccc(F)cc2)C(=O)N[C@H](/C=C2\CCOC2=O)C[C@@H]2CCNC2=O)C(C)C)no1	Serotype 14	H1-HELA	XTT	0.1 µM
CS(=O)(=O)c1ccc(Cc2ccc(F)cc2)nc1	TYPE 2	HeLa	cytopathic effect	>10 µg/mL
CN(C)c1nc(C(F)(F)F)nc2c1ncn2Cc1ccc(Cl)c(N)c1	Serotype 31	M-HELA	plaque count	>8 µM
CNC(=O)/C=C(\c1ccccc1)c1ccc2nc(N)c(-c3ccccc3)n2c1	TYPE 14	H-HELA	plaque count	0.27 µg/mL
Cc1c(-c2ccccc2)n(-c2cccc(F)c2)c2ccc(C(C)C)cc2c1=O	29/5582	HELA-OHIO	cytopathic effect	0.08 µg/mL
CCOC(=O)c1ccc(OCCC2CCN(c3ccc(C)nn3)CC2)cc1	Serotype 45 (group A)	HELA-OHIO	cytopathic effect	>19 µM
Cn1c2ccccc2c2nnc(NCCCN)nc21	1059	WI-38	plaque count	10 µg/mL
COC(=O)c1cc(CCCOc2c(C)cc(-c3noc(C)n3)cc2C)on1	Serotype 2	HeLa	cytopathic effect	0.003 µg/mL
CN[C@H]1C[C@@H](n2cnc3c(N)ncnc32)[C@H](O)[C@@H]1O	TYPE 2	HFF	-	>100 µg/mL
CCOC(=O)/C=C/[C@H](CCC(N)=O)NC(=O)NC(CC(C)C)C(=O)OCC	Serotype 14	H1-HELA	-	19.6 µM
CCCCCCCCCCCCNc1nnc2c3ccccc3n(C)c2n1	1059	WI-38	plaque count	4 µg/mL
c1ccc(C2COc3ccccc3C2)cc1	Serotype 1B	M-HELA	plaque count	0.417 µM
CSc1nsc(-c2ccc(O)cc2)c1C#N	Serotype 51 (group B)	HELA-OHIO	cytopathic effect	>10 µM
Cc1ccccc1Cn1cnc2c(N(C)C)nc(C(F)(F)F)nc21	Serotype 13	M-HELA	plaque count	>8 µM
Clc1ccc2c(c1)C=C(c1ccccc1)CO2	Serotype 1B	M-HELA	cytopathic effect	3.3 µM
CSc1nsc(-c2ccc(OC(C)(C)C)cc2)c1C#N	Serotype 29 (group B)	HELA-OHIO	cytopathic effect	>40 µM
CS(=O)(=O)c1ccc(NCc2ccc(Cl)c(Cl)c2)nc1	TYPE 1A	HeLa	cytopathic effect	3.1 µg/mL
Cn1c2ccccc2c2nnc(NCC(O)CO)nc21	HGP	WI-38	plaque count	100 µg/mL
Brc1ccc2c(c1)C=C(c1ccccc1)CO2	Serotype 1B	M-HELA	plaque count	1.464 µM
CSc1nsc(-c2ccc(OCCOc3ccc([N+](=O)[O-])cc3)cc2)c1C#N	Serotype 51 (group B)	HELA-OHIO	cytopathic effect	>2 µM
Cc1cc(CCCOc2c(C)cc(-c3noc(C(F)(F)F)n3)cc2C)on1	Isolate 34	OHIO HELA-I	cytopathic effect / visual reading	0.01 µg/mL
Cn1c2ccccc2c2n[nH]c(=S)nc21	1059	WI-38	plaque count	20 µg/mL
C[C@@]1(O)[C@H](O)[C@@H](COP(=O)(O)OP(=O)(O)OP(=O)(O)O)O[C@H]1n1ccc2c(N)ncnc21	TYPE 2	KB	neutral red	0.5 µM
CC[C@H]1OC(=O)[C@H](C)[C@@H](O[C@H]2C[C@@](C)(OC)[C@@H](O)[C@H](C)O2)[C@H](C)[C@@H](O[C@@H]2O[C@H](C)C[C@H](N(C)C)[C@H]2O)[C@](C)(O)C[C@@H](C)C(=O)[C@H](C)[C@@H](O)[C@]1(C)O	TYPE 14	Human tracheal epithelial cells	-	<10 µM
CNC(=O)/C=C(\c1ccccc1)c1ccc2nc(N)c(I)n2c1	TYPE 14	H-HELA	plaque count	>3.2 µg/mL
CCO/N=C/c1cc(C)c(OCCCc2cc(C)no2)c(C)c1	TYPE 1A	KB	cytopathic effect / visual reading	<0.16 µg/mL
Cc1nc(CC(O)CO)c2nc[nH]c(=O)n12	TYPE 1A	WI-38	cytopathic effect	≥300 µg/mL
CN(C)c1nc(C(F)(F)F)nc2c1ncn2Cc1ccc(S(C)(=O)=O)cc1	TYPE 1B	M-HELA	plaque count	0.5 µM
Cc1ccc(Cn2cnc3c(N(C)C)nc(C(F)(F)F)nc32)cc1	TYPE 14	M-HELA	plaque count	1.2 µM
CNC(=O)/C=C(\c1ccccc1)c1ccc2nc(N)c(-c3ccc(F)c(F)c3F)n2c1	TYPE 14	H-HELA	plaque count	0.17 µg/mL
CN(C)c1nc(Cl)nc2c1ncn2Cc1ccc(Cl)cc1	Serotype 31	M-HELA	plaque count	>5 µM
Cc1ccc(Cn2cnc3c(N(C)C)nc(C(F)(F)F)nc32)cc1	Serotype 8	M-HELA	plaque count	>2.5 µM
CSc1nsc(-c2ccc(OCCCOc3ccc([N+](=O)[O-])cc3)cc2)c1C#N	Serotype 86 (group A)	HELA-OHIO	cytopathic effect	0.4 µM
C#CC[C@@H](C(=O)N[C@H](/C=C/C(=O)OC(C)C)C[C@@H]1CCNC1=O)n1cccc(NC(=O)c2cc(C)on2)c1=O	Serotype 39	-	-	>10 µM
CN(C)c1ccc(Cn2cnc3c(N(C)C)nc(C(F)(F)F)nc32)cc1	Serotype 21	M-HELA	plaque count	>8 µM
CCn1c2c(c(=O)c3cc(C(C)C)ccc31)Cc1ccccc1-2	1B/B632	HELA-OHIO	cytopathic effect	0.3 µg/mL
COC(=O)[C@H](Cc1cccc2ccccc12)Nc1nc2ccc(NC(=O)OC(C)(C)C)c(C)c2c(=O)o1	Serotype 1A	H1-HELA	XTT	0.3 µM
CC(O)CCNc1nnc2c3ccccc3n(C)c2n1	HGP	WI-38	plaque count	45 µg/mL
C=CCc1nc(C)n2c(=O)[nH]c(NC(C)=O)nc12	TYPE 9	WI-38	cytopathic effect	>200 µg/mL
Cc1cc(CCCCCOc2c(Cl)cc(C3=NCCO3)cc2Cl)on1	TYPE 9	HeLa	plaque count	0.075 µg/mL
Cc1cc(Cl)ccc1Cn1cnc2c(N(C)C)nc(C(F)(F)F)nc21	Serotype 21	M-HELA	plaque count	>8 µM
CNC(=O)/C=C(\c1ccccc1)c1ccc2nc(N)c(SC(C)C)n2c1	TYPE 14	H-HELA	cytopathic effect	0.21 µg/mL
CCOC(=O)c1ccc(OCCOc2ccc(-c3snc(SC)c3C#N)cc2)cc1	Serotype 70 (group A)	HELA-OHIO	cytopathic effect	>2 µM
Cc1nc(-c2cc(C)c(OCCCc3cc(C4CC4)no3)c(C)c2)no1	Serotype 1A	HeLa	cytopathic effect	0.034 µg/mL
Clc1ccc(C2=Cc3cc(Cl)ccc3OC2)cc1	Serotype 1B	M-HELA	cytopathic effect	1.45 µM
Cc1cc(CCCOc2c(C)cc(-c3noc(C(F)(F)F)n3)cc2C)on1	Serotype 10	-	-	<0.3 µM
COc1ccc(Cn2cnc3c(N(C)C)nc(C(F)(F)F)nc32)cc1C	TYPE 1B	M-HELA	plaque count	0.2 µM
CCO/N=C/c1ccc(OCCCCN2CCN(c3ccc(C)nn3)CC2)cc1	TYPE 1A	KB	cytopathic effect / visual reading	0.04 µg/mL
CCOC(=O)/C=C/[C@H](C[C@@H]1CCNC1=O)NC(=O)COc1ccc(Cl)c(Cl)c1	Serotype 14	H1-HELA	XTT	6.1 µM
N#Cc1ccc(Nc2nc(Cl)nc3c2ncn3Cc2ccccc2)cc1	Serotype 1B	-	plaque count	9.8 µM
N#CCO/N=C/c1ccc(OCCC2CCN(c3ccc(Cl)nn3)CC2)cc1	TYPE 1A	KB	cytopathic effect / visual reading	<0.0032 µg/mL

A second listing of 5 rows from above:

SMILES,strain or isolate,cell line,method,result
CCOC(=O)/C=C/[C@H](C[C@@H]1CCNC1=O)NC(=O)Nc1cccc2ccccc12,Serotype 14,H1-HELA,-,>10 µM
Cc1ccc(Cn2cnc3c(N(C)C)nc(C(F)(F)F)nc32)cc1,TYPE 14,M-HELA,plaque count,1.2 µM
CN(C)c1ccc(Cn2cnc3c(N(C)C)nc(C(F)(F)F)nc32)cc1,Serotype 21,M-HELA,plaque count,>8 µM
CN(C)c1nc(Cl)nc2c1ncn2Cc1ccc(Cl)cc1,Serotype 31,M-HELA,plaque count,>5 µM
Cn1c2ccccc2c2nnc(NCCCN)nc21,1059,WI-38,plaque count,10 µg/mL